Test results reported in US8975288B2 (priority 2013, dated 2015).

Tests used:
S. aureus = test: F2 resistance assay, S. aureus; settings: pre-treatment with 40 μM F2
S. flexneri TolC mutant = test: MIC study, S. flexneri TolC mutant; settings: Table 5

CCCn1nnnc1NC(=O)c1cccc(Cl)c1 [Compound F2, reference compound] was tested, and the “Induction of resistance to F2 in S. aureus” value (S. aureus) was “induces resistance” and the “MIC S. flexneri TolC” value (S. flexneri TolC mutant) was 3.12 µM (≈ 0.829 µg/mL).

For CN(C)c1cccc2c(S(=O)(=O)NCCn3nnnc3NC(=O)c3cccc(Cl)c3)cccc12 [Dansyl-F2, 3-chloro-N-(1-(2-(5-(dimethylamino)naphthalene-1-sulfonamido)ethyl)-1H-tetrazol-5-yl)benzamide], the “MIC S. flexneri TolC” value (S. flexneri TolC mutant) was 6.25 µM (≈ 3.12 µg/mL).

Converted amounts (≈) assume the structure as drawn.
